# In patent US20070134261A1, “Effectors of innate immunity” (priority 2001, published 2007):
# Test system: human PBMCs
# Assay: IL-6 and MCP-3 release from human PBMCs (ELISA, Example 15)
# Type: cell-based
# Conditions: pre-incubation with inhibitor
substance,measurement,value
pertussis toxin,MCP-3 production from combined LL-37 and IL-1β,dramatically inhibited
